The text below walks through data of ChEMBL document CHEMBL4364262 (J Med Chem, 2019).

Chains of the proteins cited; added tags and fusions are not shown.
UniProt P04757, whole entry, looked up: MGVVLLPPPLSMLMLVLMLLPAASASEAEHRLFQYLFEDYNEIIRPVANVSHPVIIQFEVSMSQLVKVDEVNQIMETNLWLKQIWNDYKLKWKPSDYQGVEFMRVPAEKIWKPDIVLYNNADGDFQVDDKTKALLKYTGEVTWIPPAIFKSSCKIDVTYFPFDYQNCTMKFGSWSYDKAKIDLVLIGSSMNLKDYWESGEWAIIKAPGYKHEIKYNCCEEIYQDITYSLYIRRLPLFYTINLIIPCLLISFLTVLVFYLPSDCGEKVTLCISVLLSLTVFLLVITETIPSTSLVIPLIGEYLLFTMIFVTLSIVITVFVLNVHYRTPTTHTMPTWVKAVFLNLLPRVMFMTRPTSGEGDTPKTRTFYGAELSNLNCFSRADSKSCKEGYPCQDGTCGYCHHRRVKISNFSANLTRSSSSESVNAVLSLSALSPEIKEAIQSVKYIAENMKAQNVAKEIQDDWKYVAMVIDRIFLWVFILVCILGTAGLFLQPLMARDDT
UniProt P12390, whole entry, looked up: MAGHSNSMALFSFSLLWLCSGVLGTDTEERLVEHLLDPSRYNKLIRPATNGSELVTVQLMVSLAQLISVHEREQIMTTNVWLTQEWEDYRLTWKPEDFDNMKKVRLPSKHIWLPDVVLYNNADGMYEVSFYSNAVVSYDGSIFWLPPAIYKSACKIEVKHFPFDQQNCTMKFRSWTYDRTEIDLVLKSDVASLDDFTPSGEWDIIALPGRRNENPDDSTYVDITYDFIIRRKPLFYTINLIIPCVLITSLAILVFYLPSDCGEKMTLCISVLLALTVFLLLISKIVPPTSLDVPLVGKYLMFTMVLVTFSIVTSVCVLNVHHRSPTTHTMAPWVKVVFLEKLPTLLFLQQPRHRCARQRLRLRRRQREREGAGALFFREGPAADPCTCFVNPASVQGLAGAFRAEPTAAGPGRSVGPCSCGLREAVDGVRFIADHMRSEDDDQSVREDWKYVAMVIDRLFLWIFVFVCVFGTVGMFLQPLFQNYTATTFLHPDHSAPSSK

The species named for one test is Rattus norvegicus. The test is described as follows: Selectivity ratio of IC50 for rat alpha6/alpha3beta2beta3 nAChR expressed in Xenopus laevis oocytes to IC50 for rat alpha3beta2 nACHR expressed in Xenopus laevis oocytes.
In test [1] the target is Neuronal acetylcholine receptor; alpha3/beta2 (Rattus norvegicus) (UniProt P04757+P12390). In words: Antagonist activity at rat alpha3beta2 nACHR expressed in Xenopus laevis oocytes assessed as inhibition of Ach-induced response at -70 mV holding potential by two electrode voltage-clamp assay relative to PeIA logIC50.

On to `CC(C)[C@@H]1NC(=O)[C@H](CO)NC(=O)[C@@H]2CSSC[C@H](NC(=O)CN)C(=O)N[C@@H](CSSC[C@@H](C(N)=O)NC(=O)[C@H](C)NC(=O)[C@H](CCC(=O)O)NC(=O)[C@@H]3CCCN3C(=O)[C@H](Cc3cnc[nH]3)NC(=O)[C@H](CC(N)=O)NC1=O)C(=O)N[C@@H](CO)C(=O)N[C@@H](Cc1cnc[nH]1)C(=O)N1CCC[C@H]1C(=O)N[C@@H](C)C(=O)N2`, for which the Ratio IC50 in the test filed under Rattus norvegicus is 0.1. Further, the FC in test [1] came out at 1.6. As to `CC[C@H](C)[C@@H]1NC(=O)[C@H](Cc2cnc[nH]2)NC(=O)[C@@H]2CCCN2C(=O)[C@H](CC(N)=O)NC(=O)[C@H](CC(N)=O)NC(=O)[C@H](C(C)C)NC(=O)[C@H](CC(N)=O)NC(=O)[C@@H]2CSSC[C@H](NC(=O)CN)C(=O)N[C@@H](CSSC[C@@H](C(=O)NCC(N)=O)NC1=O)C(=O)N[C@@H](CO)C(=O)N[C@@H](Cc1cnc[nH]1)C(=O)N1CCC[C@H]1C(=O)N[C@@H](C)C(=O)N2`, the Ratio IC50 in the test listed under Rattus norvegicus turned out to be 18. As for `CC[C@H](C)[C@@H]1NC(=O)[C@H](Cc2cnc[nH]2)NC(=O)[C@@H]2CSSC[C@H](NC(=O)CN)C(=O)N[C@@H](CSSC[C@@H](C(N)=O)NC(=O)[C@H](CC(C)C)NC(=O)[C@H](CCC(=O)O)NC(=O)[C@@H]3CCCN3C(=O)[C@H](Cc3cnc[nH]3)NC(=O)[C@H](CCC(=O)O)NC1=O)C(=O)N[C@@H](CO)C(=O)N[C@@H](Cc1cnc[nH]1)C(=O)N1CCC[C@H]1C(=O)N[C@@H](C)C(=O)N2`, the Ratio IC50 in the test listed under Rattus norvegicus was determined as 14. With `CC(C)C[C@@H]1NC(=O)[C@H](CCC(=O)O)NC(=O)[C@@H]2CCCN2C(=O)[C@H](Cc2cnc[nH]2)NC(=O)[C@H](CCCCC(=O)O)NC(=O)[C@H](C(C)C)NC(=O)[C@H](CO)NC(=O)[C@@H]2CSSC[C@H](NC(=O)CN)C(=O)N[C@@H](CSSC[C@@H](C(N)=O)NC1=O)C(=O)N[C@@H](CO)C(=O)N[C@@H](Cc1cnc[nH]1)C(=O)N1CCC[C@H]1C(=O)N[C@@H](C)C(=O)N2`, the Ratio IC50 in the test filed under Rattus norvegicus was found to be 300. Also, the FC in test [1] is -0.1. Regarding `CC(C)C[C@@H]1NC(=O)[C@H](CCC(=O)O)NC(=O)[C@@H]2CCCN2C(=O)[C@H](Cc2cnc[nH]2)NC(=O)[C@H](CC(N)=O)NC(=O)[C@H](C)NC(=O)[C@H](CO)NC(=O)[C@@H]2CSSC[C@H](NC(=O)CN)C(=O)N[C@@H](CSSC[C@@H](C(N)=O)NC1=O)C(=O)N[C@@H](CO)C(=O)N[C@@H](Cc1cnc[nH]1)C(=O)N1CCC[C@H]1C(=O)N[C@@H](C)C(=O)N2`, the Ratio IC50 in the test filed under Rattus norvegicus was determined as 1. The FC in test [1] is -0.8.

As for `CC(C)C[C@@H]1NC(=O)[C@H](CCC(=O)O)NC(=O)[C@@H]2CCCN2C(=O)[C@H](Cc2cnc[nH]2)NC(=O)[C@H](CCCCCC(=O)O)NC(=O)[C@H](C(C)C)NC(=O)[C@H](CO)NC(=O)[C@@H]2CSSC[C@H](NC(=O)CN)C(=O)N[C@@H](CSSC[C@@H](C(N)=O)NC1=O)C(=O)N[C@@H](CO)C(=O)N[C@@H](Cc1cnc[nH]1)C(=O)N1CCC[C@H]1C(=O)N[C@@H](C)C(=O)N2`, the Ratio IC50 in the test listed under Rattus norvegicus stood at 59. Moreover, the FC in test [1] is 0.4. Take `CC(C)C[C@@H]1NC(=O)[C@H](CC(N)=O)NC(=O)[C@H](CO)NC(=O)[C@H](Cc2cnc[nH]2)NC(=O)[C@H](CCC(=O)O)NC(=O)[C@H](CC(C)C)NC(=O)[C@H](Cc2cnc[nH]2)NC(=O)[C@@H]2CSSC[C@H](NC(=O)CN)C(=O)N[C@@H](CSSC[C@@H](C(N)=O)NC1=O)C(=O)N[C@@H](CO)C(=O)N[C@@H](CC(N)=O)C(=O)N1CCC[C@H]1C(=O)N[C@@H](C(C)C)C(=O)N2`: the Ratio IC50 in the test filed under Rattus norvegicus was 0.6. In the case of `CC[C@H](C)[C@@H]1NC(=O)[C@H](CCC(=O)O)NC(=O)[C@@H]2CCCN2C(=O)[C@H](Cc2cnc[nH]2)NC(=O)[C@H](CC(N)=O)NC(=O)[C@H]([C@@H](C)CC)NC(=O)[C@H](Cc2cnc[nH]2)NC(=O)[C@@H]2CSSC[C@H](NC(=O)CN)C(=O)N[C@@H](CSSC[C@@H](C(N)=O)NC1=O)C(=O)N[C@@H](CO)C(=O)N[C@@H](Cc1cnc[nH]1)C(=O)N1CCC[C@H]1C(=O)N[C@@H](C)C(=O)N2`, the Ratio IC50 in the test listed under Rattus norvegicus came out at 3. Turning to `CC(C)C[C@@H]1NC(=O)[C@H](CCC(=O)O)NC(=O)[C@@H]2CCCN2C(=O)[C@H](Cc2cnc[nH]2)NC(=O)[C@H](CC(N)=O)NC(=O)[C@H]([C@@H](C)O)NC(=O)[C@H](CO)NC(=O)[C@@H]2CSSC[C@H](NC(=O)CN)C(=O)N[C@@H](CSSC[C@@H](C(N)=O)NC1=O)C(=O)N[C@@H](CO)C(=O)N[C@@H](Cc1cnc[nH]1)C(=O)N1CCC[C@H]1C(=O)N[C@@H](C)C(=O)N2`, in the test filed under Rattus norvegicus, the Ratio IC50 was 1. Moreover, the FC in test [1] turned out to be 0.1.

On to `CC(C)C[C@@H]1NC(=O)[C@H](CC(=O)O)NC(=O)[C@@H]2CCCN2C(=O)[C@H](Cc2cnc[nH]2)NC(=O)[C@H](CC(N)=O)NC(=O)[C@H](C(C)C)NC(=O)[C@H](CO)NC(=O)[C@@H]2CSSC[C@H](NC(=O)CN)C(=O)N[C@@H](CSSC[C@@H](C(N)=O)NC1=O)C(=O)N[C@@H](CO)C(=O)N[C@@H](Cc1cnc[nH]1)C(=O)N1CCC[C@H]1C(=O)N[C@@H](C)C(=O)N2`, for which the Ratio IC50 in the test listed under Rattus norvegicus amounted to 0.3. Besides, the FC in test [1] is 0.5. The like results for `CC(C)C[C@@H]1NC(=O)[C@H](CCCNC(=N)N)NC(=O)[C@@H]2CCCN2C(=O)[C@H](Cc2cnc[nH]2)NC(=O)[C@H](CC(N)=O)NC(=O)[C@H](C(C)C)NC(=O)[C@H](CO)NC(=O)[C@@H]2CSSC[C@H](NC(=O)CN)C(=O)N[C@@H](CSSC[C@@H](C(N)=O)NC1=O)C(=O)N[C@@H](CO)C(=O)N[C@@H](Cc1cnc[nH]1)C(=O)N1CCC[C@H]1C(=O)N[C@@H](C)C(=O)N2` were, in that order, 0.1 and 0.7. In the same order, the values of `CC(C)C[C@@H]1NC(=O)[C@H](CC(C(=O)O)C(=O)O)NC(=O)[C@@H]2CCCN2C(=O)[C@H](Cc2cnc[nH]2)NC(=O)[C@H](CC(N)=O)NC(=O)[C@H](C(C)C)NC(=O)[C@H](CO)NC(=O)[C@@H]2CSSC[C@H](NC(=O)CN)C(=O)N[C@@H](CSSC[C@@H](C(N)=O)NC1=O)C(=O)N[C@@H](CO)C(=O)N[C@@H](Cc1cnc[nH]1)C(=O)N1CCC[C@H]1C(=O)N[C@@H](C)C(=O)N2` are 2 and -0.1. As to `CC(C)C[C@@H]1NC(=O)[C@H](CCC(=O)O)NC(=O)[C@@H]2CCCN2C(=O)[C@H](Cc2cnc[nH]2)NC(=O)[C@H](CCC(=O)O)NC(=O)[C@H](C(C)C)NC(=O)[C@H](CO)NC(=O)[C@@H]2CSSC[C@H](NC(=O)CN)C(=O)N[C@@H](CSSC[C@@H](C(N)=O)NC1=O)C(=O)N[C@@H](CO)C(=O)N[C@@H](Cc1cnc[nH]1)C(=O)N1CCC[C@H]1C(=O)N[C@@H](C)C(=O)N2`, the Ratio IC50 in the test listed under Rattus norvegicus was determined as 4. In addition, in test [1], the FC turned out to be 0.2.

As for `CC[C@H](C)[C@@H]1NC(=O)CNC(=O)[C@H](C)NC(=O)[C@@H]2CSSC[C@H](NC(=O)CN)C(=O)N[C@@H](CSSC[C@@H](C(N)=O)NC(=O)[C@H](CC(C)C)NC(=O)[C@H](CCC(=O)O)NC(=O)[C@H](CCC(=O)O)NC(=O)[C@H](Cc3cnc[nH]3)NC1=O)C(=O)N[C@@H](C)C(=O)N[C@@H](CCCNC(=N)N)C(=O)N[C@@H](C)C(=O)N[C@@H](C)C(=O)N2`, the Ratio IC50 in the test listed under Rattus norvegicus is 9. On to `CC(C)C[C@@H]1NC(=O)[C@H](CCCC(=O)O)NC(=O)[C@@H]2CCCN2C(=O)[C@H](Cc2cnc[nH]2)NC(=O)[C@H](CC(N)=O)NC(=O)[C@H](C(C)C)NC(=O)[C@H](CO)NC(=O)[C@@H]2CSSC[C@H](NC(=O)CN)C(=O)N[C@@H](CSSC[C@@H](C(N)=O)NC1=O)C(=O)N[C@@H](CO)C(=O)N[C@@H](Cc1cnc[nH]1)C(=O)N1CCC[C@H]1C(=O)N[C@@H](C)C(=O)N2`, for which, in the test filed under Rattus norvegicus, the Ratio IC50 amounted to 0.3. Further, in test [1], the FC came out at 0.8.

As for `CC[C@H](C)[C@@H]1NC(=O)[C@H](Cc2cnc[nH]2)NC(=O)[C@@H]2CSSC[C@H](NC(=O)CN)C(=O)N[C@@H](CSSC[C@@H](C(N)=O)NC(=O)[C@H](CC(C)C)NC(=O)[C@H](CCC(=O)O)NC(=O)[C@@H]3CCCN3C(=O)[C@H](Cc3cnc[nH]3)NC(=O)[C@H](CCCC(=O)O)NC1=O)C(=O)N[C@@H](CO)C(=O)N[C@@H](Cc1cnc[nH]1)C(=O)N1CCC[C@H]1C(=O)N[C@@H](C)C(=O)N2`, the Ratio IC50 in the test listed under Rattus norvegicus was found to be 52. On the same count and under the same terms, for `CC(C)C[C@@H]1NC(=O)[C@H](CO)NC(=O)[C@@H]2CSSC[C@@H](C(N)=O)NC(=O)[C@H](Cc3ccc(O)cc3)NC(=O)[C@H](CC(=O)O)NC(=O)[C@@H]3CCCN3C(=O)[C@H](CC(N)=O)NC(=O)[C@H](CC(N)=O)NC(=O)[C@H](C)NC(=O)[C@H](C)NC(=O)[C@H](CSSC[C@H](NC(=O)CN)C(=O)N2)NC(=O)[C@@H]2CCCN2C(=O)[C@@H]2CCCN2C1=O` the value was 1; for `CC[C@H](C)[C@@H]1NC(=O)[C@H](Cc2cnc[nH]2)NC(=O)[C@@H]2CSSC[C@H](NC(=O)CN)C(=O)N[C@@H](CSSC[C@@H](C(N)=O)NC(=O)[C@H](CC(C)C)NC(=O)[C@H](CCC(=O)O)NC(=O)[C@@H]3CCCN3C(=O)[C@H](Cc3cnc[nH]3)NC(=O)[C@H](CC(=O)O)NC1=O)C(=O)N[C@@H](CO)C(=O)N[C@@H](Cc1cnc[nH]1)C(=O)N1CCC[C@H]1C(=O)N[C@@H](C)C(=O)N2`, 12; for `CC[C@H](C)[C@@H]1NC(=O)[C@H](Cc2cnc[nH]2)NC(=O)[C@@H]2CSSC[C@H](NC(=O)CN)C(=O)N[C@@H](CSSC[C@@H](C(N)=O)NC(=O)[C@H](CC(C)C)NC(=O)[C@H](CCC(=O)O)NC(=O)[C@@H]3CCCN3C(=O)[C@H](Cc3cnc[nH]3)NC(=O)[C@H](CC(N)=O)NC1=O)C(=O)N[C@@H](CO)C(=O)N[C@@H](Cc1cnc[nH]1)C(=O)N1CCC[C@H]1C(=O)N[C@@H](C)C(=O)N2`, 3. On the same count and under the same terms, for `CC[C@H](C)[C@@H]1NC(=O)[C@H](Cc2cnc[nH]2)NC(=O)[C@@H]2CSSC[C@H](NC(=O)CN)C(=O)N[C@@H](CSSC[C@@H](C(N)=O)NC(=O)[C@H](CC(C)C)NC(=O)[C@H](CCC(=O)O)NC(=O)[C@@H]3CCCN3C(=O)[C@H](Cc3cnc[nH]3)NC(=O)[C@H](CCCCCC(=O)O)NC1=O)C(=O)N[C@@H](CO)C(=O)N[C@@H](Cc1cnc[nH]1)C(=O)N1CCC[C@H]1C(=O)N[C@@H](C)C(=O)N2` the value was 39.
